PubChem BioAssay AID1224833 | University of Georgia | 2016
Assay: 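Host factors restraining rotavirus as candidate antiviral genes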 (primary screen). Cells: monkey MA104 kidney cells. Reagents: siRNA pool against human genes, 50 nM. Timing: 48 h knock-down before infection; read 24 h after infection. Conditions: infection with rotavirus strain RV3 two days after transfection; infectious dose for this stage not given. Detection: 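z-score of rotavirus antigen signal per well, from a fluorescent immunoassay, relative to non-targeting control wells on the same plate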. Direction: z-score vs non-targeting control: higher = more rotavirus replication than with non-targeting control. Call rule: In these data the active calls have z-score vs non-targeting control at about -1 or lower, or at about 1 or higher. Calls: active = z-score beyond 1 either way; inactive = z-score within 1 of zero.
This is one part, drawn at random, of about 12,000 reagents tested. Of all reagents, about 5,600 (46%) are marked active. 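Active calls cover z-scores past 1 in both directions, so they include lowered as well as raised rotavirus replication.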

gene knocked down	z-score vs non-targeting control	outcome
KLF8	1.07	active
ZNF417	1.16	active
MRPL2	-1.78	active
ABCB1	-0.82	inactive
ARL8B	-0.629	inactive
TAS2R8	-1.52	active
SYCP1	-1.01	active
OR51A2	-1.73	active
KBTBD3	0.754	inactive
THOC3	0.0408	inactive
CDH20	-0.589	inactive
ZNF329	-1.01	active
FAM161A	-0.695	inactive
SP2	-3.24	active
ITIH6	0.607	inactive
FOXK1	0.82	inactive
ZCCHC9	-0.94	inactive
TBC1D26	-1.99	active
ISCU	-0.836	inactive
CORO2B	-0.221	inactive
DRGX	-1.05	active
TBX4	1.43	active
COL11A1	-0.264	inactive
FOSB	1.32	active
CLIP2	0.823	inactive
IGFBP3	0.501	inactive
HOXC11	1.36	active
KRT38	-2.02	active
SBDS	-0.835	inactive
MGMT	-1.46	active
JAML	2	active
OR10AD1	-0.683	inactive
AVPR1B	-0.706	inactive
MYL4	-1.75	active
MRPL38	-1.96	active
RAD51B	-1.19	active
CLU	-0.721	inactive
SLC16A6	-1.02	active
OAF	-0.34	inactive
MRPS9	-0.997	inactive
SRSF8	-2.12	active
SH3GL2	-1.19	active
APOL2	0.0638	inactive
MSANTD4	-0.73	inactive
CTAGE1	-1.12	active
DRAP1	0.907	inactive
SERTM1	1.25	active
PRH1	-1.9	active
RTBDN	-1.43	active
CDC20B	-0.892	inactive
CLDN12	-0.809	inactive
NME9	-0.819	inactive
RAB3IP	0.84	inactive

16 consecutive entries from above, for reference:
gene knocked down	z-score vs non-targeting control	outcome
HOXC11	1.36	active
KRT38	-2.02	active
SBDS	-0.835	inactive
MGMT	-1.46	active
JAML	2	active
OR10AD1	-0.683	inactive
AVPR1B	-0.706	inactive
MYL4	-1.75	active
MRPL38	-1.96	active
RAD51B	-1.19	active
CLU	-0.721	inactive
SLC16A6	-1.02	active
OAF	-0.34	inactive
MRPS9	-0.997	inactive
SRSF8	-2.12	active
SH3GL2	-1.19	active

Continued:
gene knocked down	z-score vs non-targeting control	outcome
TIPE1	0.896	inactive
GOLGA3	-0.308	inactive
NOL11	0.472	inactive
PAIP1	-0.72	inactive
SPATA7	-1	active
POLR3E	0.917	inactive
MAGEB6	-0.474	inactive
PLEKHM3	-1.69	active
ASCC3	1.11	active
PLXNC1	-0.544	inactive
CENPL	1.38	active
KIF20B	-1.65	active
MS4A4A	-0.794	inactive
ZNF134	-0.563	inactive
NAT9	5.32	active
PRRT3	-1.28	active
ARL13B	1.03	active
CCDC71	1.24	active
RGS11	-0.87	inactive
SUGCT	-1.13	active
CD300LF	-0.429	inactive
FAM3D	-2.5	active
WNK1	-2.21	active
ATOH7	-1.32	active
RNASE7	-1.01	active
KLC4	-1.01	active
SMC6	-0.326	inactive
DRAM2	2.06	active
NDUFS8	-1.16	active
FABP7	-1.04	active
GNAT1	-1.75	active
BFSP2	-1.73	active
FZR1	-1.02	active
SLC27A5	-1.35	active
TRMO	1.5	active
LHFPL1	-2.33	active
PROX2	1.26	active
CD96	-0.177	inactive
SLC9A4	0.105	inactive
SZT2	1.91	active
OR7E24	1.6	active
COMMD1	0.352	inactive
SPINK4	-0.75	inactive
OOSP2	0.578	inactive
DMTN	-0.784	inactive
CYP26A1	1.18	active
BDH1	-1.25	active
CCDC88A	-0.598	inactive
LAIR2	-1.2	active
MORC4	1.96	active
ZNF665	0.459	inactive
TSPAN3	-0.2	inactive
DEPDC5	-1.86	active
OTP	-1.3	active
CDAN1	-0.211	inactive
GAB2	-0.962	inactive
DSN1	-0.348	inactive
